One molecule from patent US9556471B2, “Enzyme containing liquid and delivery system for detection of analytes on surfaces” (dated 2017) can be followed below.

Protein sequences, listed by entry. Tags and fused reporters are not part of them. Residues count along the entry.
UniProt P22303, 32-614 limits assumed: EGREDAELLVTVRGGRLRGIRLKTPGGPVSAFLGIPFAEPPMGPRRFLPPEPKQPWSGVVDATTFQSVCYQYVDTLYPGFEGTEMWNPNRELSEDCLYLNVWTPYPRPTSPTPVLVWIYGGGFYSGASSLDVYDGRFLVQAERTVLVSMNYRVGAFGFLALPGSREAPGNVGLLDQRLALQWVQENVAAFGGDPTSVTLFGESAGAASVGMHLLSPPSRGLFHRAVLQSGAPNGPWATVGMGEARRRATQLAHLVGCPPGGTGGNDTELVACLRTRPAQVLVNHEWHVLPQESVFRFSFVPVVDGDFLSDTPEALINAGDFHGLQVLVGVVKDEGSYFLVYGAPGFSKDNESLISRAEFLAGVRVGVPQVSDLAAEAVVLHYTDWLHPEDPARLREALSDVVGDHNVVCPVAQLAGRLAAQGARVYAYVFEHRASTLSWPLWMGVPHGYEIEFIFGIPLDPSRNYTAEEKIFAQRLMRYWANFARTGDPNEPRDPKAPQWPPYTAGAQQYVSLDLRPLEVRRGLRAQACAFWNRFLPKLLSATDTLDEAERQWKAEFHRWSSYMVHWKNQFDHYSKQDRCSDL

For assay [1], the target named is AChE (acetyl cholinesterase) (Homo sapiens, UniProt P22303). The experiment in a line: Sprayed AChE/urease enzyme containing liquid, organophosphate detection via visible color change. To be noted: surface contaminated with 1 mg paraoxon per Petri dish; cresol red indicator.
The target of a further assay is AChE (Homo sapiens, UniProt P22303). Description: AChE/urease liquid with horseradish peroxidase and luminol, organophosphate detection via light emission. The note with it: paraoxon 1 mg/mL on surface in the dark; hydrogen peroxide 3% w/v sprayed after about 5 minutes.

In the case of `CCOP(=O)(OCC)Oc1ccc([N+](=O)[O-])cc1`, in assay [1], the “time for sprayed sensor to turn from yellow to red (inhibition of AChE)” value was at most 5 min. Moreover, the “light emission after hydrogen peroxide spray” value on AChE is “Blue light emitted”.
